A mixed list of measured activities; the numbers were collected in NIAID ChemDB.

Shared fields: cytotoxicity tests; cell line: MT-4; endpoint: CC50

Conditions beyond the fields shown may differ between rows. CCn: concentration that lowers growth or viability of the cells by n%.

{"smiles": "Cc1nc(N2C(=O)CSC2c2c(F)cccc2F)ccc1Br", "result": "32.79 µM"}
{"smiles": "CCCNc1nc(N)nc2c1ncn2[C@H]1C[C@H](N=[N+]=[N-])[C@@H](CO)O1", "result": ">80 µM"}
{"smiles": "O=C1CSC(c2c(Cl)cccc2Cl)N1c1cccc(C(F)(F)F)c1", "result": "8.62 µM"}
{"smiles": "CC(C)=CCc1c(O)cc(O)c2c1OC(c1ccc(O)c(O)c1)CC2=O", "result": "60 µg/mL"}
{"smiles": "COc1ccc(CCSc2nc(C(C)c3c(Cl)cccc3Cl)c(C)c(=O)[nH]2)cc1", "result": ">11.13 µM"}
{"smiles": "CCC(=CCN1Cc2cc(C)cc3[nH]c(=O)n(c23)CC1C)CC", "result": "20 µM"}
{"smiles": "O=C1Nc2cscc2S(=O)(=O)N1c1ccc(Cl)cc1", "result": "266.5 µM"}
{"smiles": "Cc1ccnc(N2C(=O)CSC2c2c(Cl)cccc2Cl)n1", "result": "180 µM"}
{"smiles": "N#CCN1C(=O)N(Cc2ccccc2)c2cscc2S1(=O)=O", "result": "291.3 µM"}
{"smiles": "COCCOCCOCCOCCOCCOCCOCCOC(=O)CCC(=O)O[C@H](CN1C[C@H]2CCCC[C@H]2C[C@H]1C(=O)NC(C)(C)C)[C@H](Cc1ccccc1)NC(=O)[C@H](CC(N)=O)NC(=O)c1ccc2ccccc2n1", "result": ">0.01 µM"}
{"smiles": "C=CCN1Cc2cccc3[nH]c(=O)n(c23)C[C@@H]1C", "result": "680 µM"}
{"smiles": "CC(C)=CCc1c(O)cc2occ(-c3ccc(O)cc3)c(=O)c2c1O", "result": "12 µg/mL"}
{"smiles": "CCc1c(Cc2c(Cl)cccc2Cl)nc(SCc2ccc(C#N)cc2)[nH]c1=O", "result": ">58.14 µM"}
{"smiles": "O=C(/C=C/c1ncc(-c2ccccc2)cn1)Nc1cc(-c2ccc3c(c2)CCCC3)[nH]n1", "result": ">30 µM"}
{"smiles": "COc1ccc(/C=C/CSc2nc(C(C)c3c(Cl)cccc3Cl)c(C)c(=O)[nH]2)cc1", "result": ">10.84 µM"}
{"smiles": "CSc1nc2c(c(=O)[nH]1)C(c1ccc([N+](=O)[O-])cc1)c1c(nc(SC)[nH]c1=O)O2", "result": "188.9 µM"}
{"smiles": "C1CNCCNCCCN[C@H]([C@H]2CNCCCNCCNCCCN2)CNC1", "result": "299 µg/mL"}
{"smiles": "CC1(C)C=Cc2c(ccc(C3COc4cc(O)cc(O)c4C3=O)c2O)O1", "result": "46 µg/mL"}
{"smiles": "COC[C@H](NC(=O)C(F)(F)C(=O)[C@H](Cc1ccc(OCc2ccccc2)cc1)NC(=O)[C@@H](NC(=O)OCc1ccccc1)C(C)C)C(C)C", "result": "8 µM"}
{"smiles": "CCc1c(C(C)c2c(F)cccc2F)nc(SC/C=C/c2ccc([N+](=O)[O-])cc2)[nH]c1=O", "result": "5.75 µM"}
{"smiles": "C=C(C)CN1Cc2cc(Cl)cc3[nH]c(=S)n(c23)[C@@H](C)C1", "result": "24 µM"}
{"smiles": "CN(C)C(=O)Oc1nsnc1-c1ccc(Cl)cc1", "result": "353 µM"}
{"smiles": "[N-]=[N+]=N[C@H]1C[C@H](n2cnc3c(NC4CC4c4ccccc4)nc(N)nc32)O[C@@H]1CO", "result": ">80 µM"}
{"smiles": "C=C(C)CN1Cc2cccc3[nH]c(=O)n(c23)C[C@@H]1C", "result": "110 µM"}
{"smiles": "CCn1cc(C(=O)O)c(=O)c2cc3c(cc21)OCO3", "result": ">200 µg/mL"}
{"smiles": "C1CNCCNCCCNCCNC1", "result": "226 µg/mL"}
{"smiles": "Nc1ncnc2c1ncn2C[C@H](CF)OCP(=O)(O)O", "result": ">100 µg/mL"}
{"smiles": "Nc1ccn(C[C@H]2C[C@@]2(CO)c2ccccc2)c(=O)n1", "result": "<3.12 µg/mL"}
{"smiles": "Cc1cc(Cl)nc(N2C(=O)CSC2c2c(Cl)cccc2Cl)n1", "result": "81.7 µM"}
{"smiles": "COc1nc(=O)[nH]c2c1C(c1ccc([N+](=O)[O-])cc1)c1c(OC)nc(=O)[nH]c1O2", "result": ">313 µM"}
{"smiles": "COc1cc(C)nc(N2C(=O)CSC2c2c(F)cccc2F)n1", "result": ">370.5 µM"}
{"smiles": "Cc1cn([C@H]2C[C@H](N=[N+]=[N-])[C@@H](CO)O2)c(=O)[nH]c1=O", "result": "35.6 µM"}
{"smiles": "CC(C)=CCN1[C@H](C)c2cccc3[nH]c(=S)n(c23)C[C@@H]1C", "result": "74 µM"}
{"smiles": "Cc1cn([C@H]2C[C@H](N=[N+]=[N-])[C@@H](CO)O2)c(=O)[nH]c1=O", "result": "20 µM"}
{"smiles": "O=C1CSC(c2c(F)cccc2Cl)N1c1ncccn1", "result": "136 µM"}
{"smiles": "O=c1ccn(C[C@H]2C[C@@]2(CO)c2ccccc2)c(=O)[nH]1", "result": ">100 µg/mL"}
{"smiles": "Cc1nn(-c2ccccc2)c2c1nnn2Cc1ccccc1", "result": "114 µM"}
{"smiles": "COc1ccc(S(=O)(=O)NC(N)=NCCC[C@H](NC(=O)N[C@@H](Cc2ccccc2)C(=O)OC(C)(C)C)C(=O)N[C@H](C(=O)N[C@H](COCc2ccccc2)Cc2ccccc2)C(C)C)cc1", "result": "41 µM"}
{"smiles": "CCCCCCN(C)C(=O)Oc1nsnc1-c1c(Cl)cccc1Cl", "result": "19 µM"}
{"smiles": "Cc1cn([C@H]2C[C@H](N=[N+]=[N-])[C@@H](COP(=O)(O)OCc3ccccc3)O2)c(=O)[nH]c1=O", "result": ">100 µM"}
{"smiles": "c1cc(CCNCCN2CCCCC2)ccc1CCNCCN1CCCCC1", "result": "50 µg/mL"}
{"smiles": "O=C(O)P(=O)(O)O", "result": "3493 µM"}
{"smiles": "CCCOc1nc(N)nc2c1ncn2[C@H]1C[C@H](N=[N+]=[N-])[C@@H](CO)O1", "result": ">200 µM"}
{"smiles": "CCn1cc(C(=O)O)c(=O)c2ccc(C)nc21", "result": ">250 µg/mL"}
{"smiles": "CC(C)=CCc1c([C@@H]2CCc3ccc(O)cc3O2)cc2c(c1O)OC(C)(C)C=C2", "result": "12 µg/mL"}
{"smiles": "C=CCN1Cc2cccc3[nH]c(=O)n(c23)CC1C", "result": "620 µM"}
{"smiles": "c1cc(CN2CCCNCCNCCCNCC2)ccc1CN1CCCNCCNCCCNCC1", "result": ">125 µg/mL"}
{"smiles": "Cc1ccnc2c1NC(=O)c1cccnc1N2C1CC1", "result": "235 µM"}
{"smiles": "CCCNC(=O)/N=C1\\C(=[N+]=[N-])C(C)=NN1c1ccccc1", "result": "77 µM"}
{"smiles": "CC(C)[C@H](NC(=O)N(C)Cc1ccccn1)C(=O)N[C@@H](Cc1ccccc1)[C@H](O)[C@@H](O)[C@H](Cc1ccccc1)NC(=O)[C@@H](NC(=O)N(C)Cc1ccccn1)C(C)C", "result": ">100 µM"}
{"smiles": "CN1C(=O)Nc2cscc2S1(=O)=O", "result": ">99.8 µM"}
{"smiles": "O=c1[nH]c2c(c(=O)[nH]1)C(c1ccc(I)cc1)c1c([nH]c(=O)[nH]c1=O)O2", "result": ">276 µM"}
{"smiles": "Cc1cn([C@H]2C=C[C@@H](COP(=O)(OCc3ccccc3)OCc3ccccc3)O2)c(=O)[nH]c1=O", "result": "74 µM"}
{"smiles": "CCN(C)c1nc(N)nc2c1ncn2[C@H]1C[C@H](N=[N+]=[N-])[C@@H](CO)O1", "result": ">200 µM"}
{"smiles": "Cc1cn([C@H]2C=C[C@@H](COP(=O)(O)OCc3ccccc3)O2)c(=O)[nH]c1=O", "result": "24 µM"}
{"smiles": "O=C1CSC2(CCCCC2)N1Cc1ccco1", "result": "271 µM"}
{"smiles": "[N-]=[N+]=N[C@H]1C[C@H](n2cnc3c(NC4CCC4)nc(N)nc32)O[C@@H]1CO", "result": ">80 µM"}
{"smiles": "Cc1cn([C@H]2C[C@H](N=[N+]=[N-])[C@@H](COP(=O)(OCc3ccccc3)OCc3ccccc3)O2)c(=O)[nH]c1=O", "result": "10 µM"}
{"smiles": "Cc1ccc(CN2C(=O)CSC2c2c(F)cccc2F)o1", "result": "125 µM"}
{"smiles": "Nc1ccn(C[C@@H]2C[C@@]2(CO)c2ccccc2)c(=O)n1", "result": "<46.7 µg/mL"}
{"smiles": "CCc1nc2sccn2c1C(=O)c1ccco1", "result": "358 µM"}
{"smiles": "Cc1cc(Cl)nc(N2C(=O)CSC2c2c(F)cccc2F)n1", "result": ">73.1 µM"}
{"smiles": "CC(C)[C@H](COCc1ccccc1)NC(=O)C(F)(F)C(=O)C(Cc1ccc(OCc2ccccc2)cc1)NC(=O)[C@@H](NC(=O)OCc1ccccc1)C(C)C", "result": "90 µM"}
{"smiles": "O=C1CCSC(c2c(F)cccc2F)N1Cc1ccco1", "result": "181.3 µM"}
{"smiles": "c1cc(CCNCCN2CCCC2)ccc1CCNCCN1CCCC1", "result": "70 µg/mL"}
{"smiles": "Cc1cc(C)nc(N2C(=O)CSC2c2c(Cl)cccc2Cl)n1", "result": "161 µM"}
{"smiles": "Cc1c(O)cccc1C(=O)N[C@@H](CSc1ccccc1)[C@H](O)CN1C[C@H]2CCCC[C@H]2C[C@H]1C(=O)NC(C)(C)C", "result": "6.8 µM"}
{"smiles": "Cc1ccnc2c1NC(=O)c1cccnc1N2C1CC1", "result": "50 µM"}
{"smiles": "CC(C)C(N)C(=O)O[C@@H](C[C@@H](Cc1ccccc1)C(=O)N[C@H]1c2ccccc2C[C@H]1O)CN1CCN(Cc2cccnc2)C[C@H]1C(=O)NC(C)(C)C", "result": ">0.1 µM"}
{"smiles": "CCC(=CCN1Cc2c(Cl)ccc3[nH]c(=S)n(c23)C[C@@H]1C)CC", "result": "12 µM"}
{"smiles": "CCCNC(=O)n1nnc2c(C)nn(-c3ccccc3)c21", "result": "74 µM"}
{"smiles": "CCCN1C(=O)N(Cc2ccccc2)S(=O)(=O)c2cscc21", "result": ">743.1 µM"}
{"smiles": "CN(C)C(=O)Oc1nsnc1-c1cccc(Cl)c1Cl", "result": "127 µM"}
{"smiles": "CCN(CC)c1nc(N)nc2c1ncn2[C@H]1C[C@H](N=[N+]=[N-])[C@@H](CO)O1", "result": ">200 µM"}
{"smiles": "COc1ccc(S(=O)(=O)NC(N)=NCCC[C@H](NC(=O)N[C@@H](Cc2ccccc2)C(=O)OC(C)(C)C)C(=O)N[C@H](C(=O)N[C@H](C=O)Cc2ccccc2)C(C)C)cc1", "result": "1.7 µM"}
{"smiles": "CCCCN(C)C(=O)Oc1nsnc1-c1c(Cl)cccc1Cl", "result": "23 µM"}
{"smiles": "O=C(Nc1cc(-c2ccc3c(c2)CCCC3)[nH]n1)c1ccc(-c2ccncc2)s1", "result": ">30 µM"}
{"smiles": "Cc1c(C(C)c2c(Cl)cccc2Cl)nc(SCc2ccc(C#N)cc2)[nH]c1=O", "result": ">11.63 µM"}
{"smiles": "C1CNCCNCCCN(CCCN2CCCNCCNCCCNCC2)CCNC1", "result": ">125 µg/mL"}
{"smiles": "CC(C)(C)NC(=O)[C@@H]1CN(Cc2cccnc2)CCN1C[C@H](C[C@@H](Cc1ccccc1)C(=O)N[C@H]1c2ccccc2C[C@H]1O)OC(=O)COc1ccc(C[C@H](N)C(=O)O)cc1", "result": ">0.1 µM"}
{"smiles": "O=C1CSC(c2c(F)cccc2Cl)N1Cc1ccco1", "result": "97.7 µM"}
{"smiles": "CC(C)C(N)C(=O)O[C@@H]1Cc2ccccc2[C@@H]1NC(=O)[C@H](Cc1ccccc1)C[C@H](O)CN1CCN(Cc2cccnc2)C[C@H]1C(=O)NC(C)(C)C", "result": ">0.1 µM"}
{"smiles": "O=C1Nc2c(csc2[N+](=O)[O-])S(=O)(=O)N1Cc1ccccc1", "result": "<5.9 µM"}
{"smiles": "CCCCNC(=O)Oc1nsnc1-c1c(Cl)cccc1Cl", "result": "139 µM"}
{"smiles": "[N-]=[N+]=N[C@H]1C[C@H](n2cnc3c(Nc4ccccc4)nc(N)nc32)O[C@@H]1CO", "result": ">200 µM"}
{"smiles": "Cc1ccnc2c1NC(=O)c1cccnc1N2C1CC1", "result": "683 µM"}
{"smiles": "[N-]=[N+]=N[C@H]1C[C@H](n2cnc3c(Oc4ccccc4)nc(N)nc32)O[C@@H]1CO", "result": "~200 µM"}
{"smiles": "Nc1nc(N)c2ncn(C[C@@H](CF)OCP(=O)(O)O)c2n1", "result": ">100 µg/mL"}
{"smiles": "CCCCCCCSc1nsc(NC(=O)Nc2ccccc2)n1", "result": "120.6 µM"}
{"smiles": "Cc1nc(N2C(=O)CSC2c2c(Cl)cccc2Cl)ccc1Br", "result": "26.28 µM"}
{"smiles": "CCC(=CCN1Cc2cc(Cl)cc3[nH]c(=S)n(c23)C[C@@H]1C)CC", "result": "12 µM"}
{"smiles": "Cc1c(Cc2c(Cl)cccc2Cl)nc(SC/C=C/c2ccc(N(C)C)cc2)[nH]c1=O", "result": ">54.35 µM"}

The first 13 rows once more:

smiles	result
Cc1nc(N2C(=O)CSC2c2c(F)cccc2F)ccc1Br	32.79 µM
CCCNc1nc(N)nc2c1ncn2[C@H]1C[C@H](N=[N+]=[N-])[C@@H](CO)O1	>80 µM
O=C1CSC(c2c(Cl)cccc2Cl)N1c1cccc(C(F)(F)F)c1	8.62 µM
CC(C)=CCc1c(O)cc(O)c2c1OC(c1ccc(O)c(O)c1)CC2=O	60 µg/mL
COc1ccc(CCSc2nc(C(C)c3c(Cl)cccc3Cl)c(C)c(=O)[nH]2)cc1	>11.13 µM
CCC(=CCN1Cc2cc(C)cc3[nH]c(=O)n(c23)CC1C)CC	20 µM
O=C1Nc2cscc2S(=O)(=O)N1c1ccc(Cl)cc1	266.5 µM
Cc1ccnc(N2C(=O)CSC2c2c(Cl)cccc2Cl)n1	180 µM
N#CCN1C(=O)N(Cc2ccccc2)c2cscc2S1(=O)=O	291.3 µM
COCCOCCOCCOCCOCCOCCOCCOC(=O)CCC(=O)O[C@H](CN1C[C@H]2CCCC[C@H]2C[C@H]1C(=O)NC(C)(C)C)[C@H](Cc1ccccc1)NC(=O)[C@H](CC(N)=O)NC(=O)c1ccc2ccccc2n1	>0.01 µM
C=CCN1Cc2cccc3[nH]c(=O)n(c23)C[C@@H]1C	680 µM
CC(C)=CCc1c(O)cc2occ(-c3ccc(O)cc3)c(=O)c2c1O	12 µg/mL
CCc1c(Cc2c(Cl)cccc2Cl)nc(SCc2ccc(C#N)cc2)[nH]c1=O	>58.14 µM